Data as given in PubChem BioAssay AID624099 (ICCB-Longwood, 2012).
Purpose: 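Human genes that papillomavirus E2 requires to repress the HPV18 LCR promoter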 (primary screen). Cells: human C33A cervical carcinoma cells (HPV-negative) stably expressing BPV1 E2 and an HPV18 LCR luciferase reporter. Knock-down reagent: siRNA pool against human genes, 40 nM. Time to read-out: 72 h. Detection: 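Per-well luciferase luminescence, z-scored on each plate against the plate mean and SD with control wells left out, then averaged across three replicate plates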. Scale: mean z-score and z-score: higher = stronger reporter signal, weaker E2 silencing. Rule for the call: 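Mean z ≥ 2 together with z ≥ 2 in two or more of the three replicates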.
The whole screen tested about 21,000 reagents; this is a random part of them. 497 of all reagents (2.4%) count as active. 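Higher z means weaker E2 silencing; only reporter increases were scored, and knock-downs that hurt cell survival may mask genuine repressor factors.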 Entries without a mark were called inactive.

What is on record for MIMS2 (mitochondrial inner membrane structural 2)?
mean z-score: -1.24; z-score, replicate A: -1.42; z-score, replicate B: -0.91; z-score, replicate C: -1.39

With NR2F6 (nuclear receptor subfamily 2 group F member 6), what does the deposit list?
mean z-score: 1.58; z-score, replicate A: 1.68; z-score, replicate B: 1.28; z-score, replicate C: 1.78

What is on record for GPBP1L1 (GC-rich promoter binding protein 1 like 1)?
mean z-score: -0.65; z-score, replicate A: -0.23; z-score, replicate B: -0.66; z-score, replicate C: -1.07

What is on record for FCF1 (FCF1 rRNA-processing protein)?
mean z-score: 0.89; z-score, replicate A: 0.9; z-score, replicate B: 1.24; z-score, replicate C: 0.53

With SOX8 (SRY-box transcription factor 8), how do the results read?
mean z-score: 0.27; z-score, replicate A: 0.51; z-score, replicate B: 0.03; z-score, replicate C: 0.26

With AGGF1 (angiogenic factor with G-patch and FHA domains 1), how do the results read?
mean z-score: 0.01; z-score, replicate A: 0.18; z-score, replicate B: -0.4; z-score, replicate C: 0.25

With ZNF778 (zinc finger protein 778), what was measured?
mean z-score: 3.42 (active); z-score, replicate A: 3.52; z-score, replicate B: 3.12; z-score, replicate C: 3.62

What did the screen give for TLR4 (toll like receptor 4)?
mean z-score: -0.67; z-score, replicate A: -0.61; z-score, replicate B: -0.63; z-score, replicate C: -0.77

What did the screen give for FAM177B (family with sequence similarity 177 member B)?
mean z-score: -0.17; z-score, replicate A: -0.48; z-score, replicate B: -0.54; z-score, replicate C: 0.51

Which result is listed for BEX2 (brain expressed X-linked 2)?
mean z-score: 2.1 (active); z-score, replicate A: 1.58; z-score, replicate B: 2.42; z-score, replicate C: 2.28

What did the screen give for DAOA-AS1 (DAOA antisense RNA 1)?
mean z-score: 0.92; z-score, replicate A: 0.83; z-score, replicate B: 1.19; z-score, replicate C: 0.73

With POT1 (protection of telomeres 1), what was measured?
mean z-score: 0.44; z-score, replicate A: 0.54; z-score, replicate B: 0.5; z-score, replicate C: 0.27

What is on record for KRTAP19-7 (keratin associated protein 19-7)?
mean z-score: 0.1; z-score, replicate A: -0.07; z-score, replicate B: 0.21; z-score, replicate C: 0.15

What did the screen give for DRAXIN (dorsal inhibitory axon guidance protein)?
mean z-score: -0.16; z-score, replicate A: -0.51; z-score, replicate B: -0.16; z-score, replicate C: 0.19

What is on record for ZNF586 (zinc finger protein 586)?
mean z-score: -1.21; z-score, replicate A: -1.45; z-score, replicate B: -0.92; z-score, replicate C: -1.24

For OXT (oxytocin/neurophysin I prepropeptide), how do the results read?
mean z-score: 0.85; z-score, replicate A: 0.92; z-score, replicate B: 0.61; z-score, replicate C: 1.02

What is on record for RNF32 (ring finger protein 32)?
mean z-score: 0.8; z-score, replicate A: 0.7; z-score, replicate B: 0.93; z-score, replicate C: 0.76

What is on record for MIXL1 (Mix paired-like homeobox)?
mean z-score: 1.48; z-score, replicate A: 1.43; z-score, replicate B: 1.43; z-score, replicate C: 1.57

For SERGEF (secretion regulating guanine nucleotide exchange factor), what does the deposit list?
mean z-score: -0.16; z-score, replicate A: 0.07; z-score, replicate B: -0.37; z-score, replicate C: -0.19

With SAV1 (salvador family WW domain containing protein 1), what was measured?
mean z-score: 0.7; z-score, replicate A: 0.57; z-score, replicate B: 0.74; z-score, replicate C: 0.8

For BRMS1L (BRMS1 like transcriptional repressor), how do the results read?
mean z-score: -0.98; z-score, replicate A: -0.98; z-score, replicate B: -0.85; z-score, replicate C: -1.11
